Experimental findings from patent publication US20230218663A1, “COMPOSITIONS AND METHODS FOR TREATING A SARS-COV-2 INFECTION” (priority 2020, published 2023) are described below.

One data set deals with VeroE6 cells. Put plainly: Cell viability assay (CellTiterGlo), VeroE6. Also noted: species or system African green monkey. The settings on record: 48 hrs incubation; concentration based on metal content. As to the method: (§1) The CellTiterGlo® luminescent assay (Promega Corporation, Madison, Wis., USA) was performed to detect the cytotoxicity of the selected compounds as previously described^39. Briefly, VeroE6 cells (4×10^4 cells per well) and Caco2 cells (4×10^4 cells per well) were incubated with different concentrations of the individual compound in 96-well plates for 48 hrs, followed by the addition of the substrate and measurement of luminance 10 min later. Ridaura and Au(PEt3)Cl were dissolved in DMSO, and the final percentage of DMSO was kept at 1% in culture medium.
In general terms: ATP-based viability assays read luminescence as a measure of living cells.

The test system of a further data set is Caco2 cells. Put plainly: Cell viability assay (CellTiterGlo), Caco2. Also noted: species or system human. Particulars: 48 hrs incubation; concentration based on metal content. As to the method: as §1
In another data set the test system is SARS-CoV-2. The settings on record: Caco-2.

Bounds are passed on as bounds.

What is called CC50 is the concentration that lowers cell viability or growth by half. Regarding “Bi(TPyP) (TPyP: tetra(4-pyridyl)porphyrin)”, the cytotoxic concentration (CC50) in the data set on VeroE6 cells is above 400 µM. This substance registered a half-maximal cytotoxic concentration (CC50) in the data set with Caco2 cells above 400 µM. In the data set with SARS-CoV-2, the “maximal viral load reduction in Caco2 cell culture supernatant” value is reported as around 3 logs and the “maximal viral load reduction in the Caco2 cell lysate” value is given as around 2 logs.
